The values that follow come from publication PMC11841396.

Construct, isoform or probe ends are uncertain for at least one entry.

The data set has as its target ArgR (Aeromonas veronii) (UniProt A0A0T6R9P2). The data set can be described thus: EMSA. Particulars: 5 mM Mg2+, […] (pH not stated), 5 mM MgCl2, 1 mM DTT, room temperature, recombinant protein, protein details: His-tag (pET28a), label: 5' 6-FAM on the ParrS-R strand, probe letters rebuilt from the primers and the genome.

With “ACCACGCAGGCTTTATCATCAGGTTGCCATCCCGGTACTAGCCGGACTCACAGCCGCACATCGGCATGTCGCGGCCCAATATTGAGTAAATTGATGTTGGCCGCTGCATTTTAATGCACTTACAATATGCGCCCAATTCTGTTGGATTCCTTCTGATGCTCCGCCAATGTGAT (double strand) [ParrS (6-FAM)]”, the binding result is “binds”.
